Laboratory results published in US20260234738A1.

How the values were obtained:
[1] = target: VSV G protein on VSV delta G pseudotyped virus-like particles (Vesicular stomatitis virus); assay: MSD electrochemiluminescence, control VLPs on plate, supernatant 1:10, a-hFc
[2] = target: SARS-COV-2 RBD-MMH (SARS-CoV-2)

Substance	VSV-VLP Binding Signal (RLU) [1]	50 nM Ag Bound (RU) [2]
mAb10934 (antibody)	3880 RLU	
mAb10987 (antibody)	1840 RLU	
mAb10989 (antibody)	672 RLU	
mAb10933		428 RU
mAb10933 (antibody)	507 RLU	
